In PubChem BioAssay AID834 (PCMD, 2007):
This is a selection; strong and weak results do not stand in their true shares. Active and inactive are the calls of the source.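 Rule for the calls: active = inhibition above 20%; inactive = inhibition below 20%.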

Assay: clotrimazole potentiators killing Candida biofilms, primary screen, with clotrimazole, Alamar Blue (AID 834);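 note: preformed 24 hr biofilms exposed to compound for 48 hr; 0% = biofilm without compound and 100% = blank killed by clotrimazole plus chlorhexidine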
Conditions: C. albicans biofilm + clotrimazole, at 6 µM, hits give high values
In the case of `O=C(NCC1(N2CCOCC2)CCCCC1)c1cc(=O)[nH]c2ccccc12`, the inhibition is reported as inactive: -1.54%. In the case of `N#CC1(Nc2ccccc2)CCN(CCc2ccccc2)CC1`, the inhibition is reported as inactive: -4.87%. For `O=C(OC1CN2CCC1CC2)C1c2ccccc2Oc2ccccc21` (centres undefined), the inhibition was inactive: 2.01%. In the case of `O=C(NCC1(N2CCOCC2)CCCCC1)c1cc2ccccc2o1`, the inhibition is reported as inactive: 6.88%. For `CCC(CO)(C(=O)OC1CN2CCC1CC2)c1ccccc1` (centres undefined), the inhibition was inactive: 1.33%. For `CCOc1ncccc1C(=O)NCC1(N2CCOCC2)CCCCC1`, the inhibition was inactive: 7.84%. With `Fc1ccccc1NC1CCN(Cc2ccccc2)CC1` the inhibition was inactive: 6.08%. For `c1ccc(CN2CCC(Nc3ccccc3)CC2)cc1`, the inhibition was inactive: -1.37%. In the case of `N/C(=N\O)c1c(N)no[n+]1[O-]`, the inhibition is reported as inactive: 3.75%.
